Pooled drug test results. Numbers come from NIAID ChemDB, via PubChem.

Shared fields: whole-cell or culture tests; organism: Mycobacterium tuberculosis

Two numbers with a dash give a range or band.

SMILES,tested at,cell line,read-out,mutations,read by,conditions,strain,result
C=C1OC(=O)C(N)=C1C(C)=O,,,MIC bound,,BACTEC,,H37Rv,>12.5 µg/mL
CCCNc1nc(-c2ccc(OC)cc2)c(C#N)c(=O)[nH]1,,,MIC,,,,H37Ra,>50 µg/mL
CC(=O)NCCCC[C@@H](OC(C)=O)[C@@H](COC(C)=O)OC(C)=O,6.25 µg/mL,,inhibition,,agar,,H37Rv,100%
N[C@@H]1CN(c2c(F)cc3c(=O)c(C(=O)O)cn([C@@H]4C[C@@H]4F)c3c2Cl)CC12CC2,,,MIC50,MDR (rifampicin- isoniazid-resistant),resazurin,,Clinical strain,0.0625 µg/mL
NC(=O)c1ccc(N=Nc2c(O)c3ccccc3[nH]c2=O)cc1,12.5 µg/mL,,inhibition,,BACTEC,,H37Rv,0%
Cc1ccc(-c2nc3ccccc3n2C(=O)/C=C/c2ccccc2)cc1,,,MIC100,,resazurin / visual reading,,H37Rv,1.6 µg/mL
Cc1cc(O)c(NCCN(C)C)c2c(=O)c3ccccc3sc12,12.5 µg/mL,,inhibition,,BACTEC,,H37Rv,17%
CC(=O)NC(C)CCC[C@H](OC(C)=O)[C@@H](COC(C)=O)OC(C)=O,6.25 µg/mL,,inhibition,,agar,,H37Rv,inactive
CN[C@@H]1[C@H](O[C@H]2[C@H](O[C@H]3[C@H](O)[C@@H](O)[C@H](N=C(N)N)[C@@H](O)[C@@H]3N=C(N)N)O[C@@H](C)[C@]2(O)C=O)O[C@@H](CO)[C@H](O)[C@H]1O,,,MIC,,resazurin / visual reading,,H37Rv,6.25 µg/mL
CCOC(=O)N1CC(C)N(C(=O)OCC)CC1C,,,MIC bound,,BACTEC,,H37Rv,>12.5 µg/mL
COc1cc2ccnc3c2c(c1OC(=O)c1cc(F)ccc1F)N(C)C=C3,,,MIC,,,,H37Rv,>128 µg/mL
CN[C@@H]1[C@@H](O)C(O[C@@H]2[C@@H](O)[C@H](OC3O[C@H](CN)[C@@H](O)[C@H](O)[C@H]3O)[C@@H](N)C[C@H]2NC(=O)[C@@H](O)CN)OC[C@]1(C)O,,,MIC,,,,T4,0.78 µg/mL
Cc1ccc(-c2nc(NCCO)[nH]c(=O)c2C#N)cc1,,,MIC,,,,H37Ra,>50 µg/mL
COc1cc(O)c2c(=O)c(OC)c(-c3ccc(O)cc3)oc2c1O,,,MIC,,resazurin,multidrug-resistant,Clinical isolates,>50 µg/mL
CCCCc1ccc(C(=O)Oc2c(OC)cc3ccnc4c3c2N(C)C=C4)cc1,,,MIC,,,,H37Rv,>128 µg/mL
CC(=O)NN(C/C=C/Cl)C/C=C/Cl,,,MIC,,BACTEC,,H37Rv,≥12.5 µg/mL
CC1C(=O)N(C)c2ccc(C(=O)CN3CCN(c4ccc([N+](=O)[O-])cc4)CC3)cc21,,,MIC,,visual reading / absorbance,,H37Rv,3.12 µg/mL
COc1cc2cc[n+](C)c(Cc3ccc(Oc4cc(Cc5c6cc(OC)c(OC)cc6cc[n+]5C)ccc4OC)cc3)c2cc1OC.[Cl-].[Cl-],12.5 µg/mL,,inhibition,,BACTEC,,H37Rv,37%
Oc1cc(C(O)CCc2ccccc2)ccc1Oc1ccccc1,,,MIC,,resazurin,,H37Rv,4 µg/mL
N#Cc1ccc(/C=N/NC(=O)[C@H](CO)NC(=O)OCc2ccccc2)cc1,,,MIC,,resazurin,,H37Rv,>100 µg/mL
Cn1cc(NC(=O)c2cc(NC(=O)CCCCCCCC(=O)Nc3cc(C(=O)Nc4cc(C(=O)NCCC(N)=[NH2+])n(C)c4)n(C)c3)cn2C)cc1C(=O)NCCC(N)=[NH2+],,,MIC,,BACTEC,,H37Rv,1.6 µg/mL
COc1cc(-c2oc3c(OC)c(OC)cc(O)c3c(=O)c2OC)ccc1O,,,MIC,,resazurin,multidrug-resistant,Clinical isolates,25 µg/mL
CC(=O)OC[C@@H](OC(C)=O)[C@@H](/C=C/CC[N+](=O)[O-])OC(C)=O,25 µg/mL,,inhibition,,agar,,H37Rv,inactive
C[C@@H]1CC[C@@]2(OC1)O[C@H]1C[C@H]3[C@@H]4CC[C@H]5C[C@@H](O)CC[C@]5(C)[C@H]4C(=O)C[C@]3(C)[C@H]1[C@@H]2C,12.5 µg/mL,,inhibition,,BACTEC,,H37Rv,1%
CC(C)(C)OC(=O)N[C@@H](CO)C(=O)N/N=C/c1ccc([N+](=O)[O-])cc1,,,MIC,,resazurin,,H37Rv,>100 µg/mL
COc1c2c(cc3c1-c1c(cc4c(c1OC)OCO4)CC(C)C(C)C3)OCO2,12.5 µg/mL,,inhibition,,BACTEC,,H37Rv,-14%
Cc1ccc2ncn(C(=O)/C=C/c3ccccc3)c2c1,,,MIC100,,resazurin / visual reading,,H37Rv,50 µg/mL
CCC(/C=C/C1=C(O)c2ccccc2C(=O)C1=O)CC,,,MIC,,BACTEC,,H37Rv,32 µg/mL
CCN1C(=O)Cc2cc(C(=O)CN3CCN(c4noc5cccc(Cl)c45)CC3)ccc21,,,MIC,,visual reading / absorbance,,H37Rv,1.56 µg/mL
CC(=O)OC[C@@H](OC(C)=O)[C@@H](/C=C/CC(C)[N+](=O)[O-])OC(C)=O,25 µg/mL,,inhibition,,agar,,H37Rv,inactive
CCC(Oc1ccc(-c2nc(N)nc(N)n2)cc1)c1ccccc1,,,MIC,,resazurin,,H37Rv,40.86 µM
CC(=O)NCC(CC[C@H](OC(C)=O)[C@@H](COC(C)=O)OC(C)=O)OC(C)=O,12.5 µg/mL,,inhibition,,agar,,H37Rv,inactive
C[C@@H](O)[C@H]1C(=O)N2C(C(=O)O)=C([C@H]3CCCO3)S[C@H]12,,,MIC,,resazurin,,H37Rv,15.7 µM
COc1cc2ccnc3c2c(c1OC(=O)N1CCCC1)N(C)C=C3,,,MIC,,,,H37Rv,>128 µg/mL
Cc1c(NC(=O)CSC(=S)N2CCN(Cc3ccccc3)CC2)c(=O)n(-c2ccccc2)n1C,,,MIC bound,,BACTEC,,H37Rv,>12.5 µg/mL
CC[C@@H](CO)NCCN[C@@H](CC)CO,,,MIC,,visual reading,,H37Rv,1.25 µg/mL
O=C1Cc2cc(C(=O)CN3CCN(c4ccc([N+](=O)[O-])cc4)CC3)ccc2N1,,,MIC,,visual reading / absorbance,,H37Rv,25 µg/mL
CCc1ccc(C(=O)Oc2c(OC)cc3ccnc4c3c2N(C)C=C4)cc1,,,MIC,,,,H37Rv,>128 µg/mL
O=C(N[C@@H](CO)C(=O)N/N=C/c1ccccc1[N+](=O)[O-])OCc1ccccc1,,,MIC,,resazurin,,H37Rv,>100 µg/mL
CO[C@H]1CCC[C@H]2C1=C(C(=O)O)N1C(=O)[C@H]([C@@H](C)O)[C@@H]21,1.22 µg/mL,,inhibition,,resazurin,,H37Rv,90%
Cc1nc2ccccc2n1C(=O)/C=C/c1ccccc1,,,MIC100,,resazurin / visual reading,,H37Rv,3.12 µg/mL
CO[C@H]1/C=C/O[C@@]2(C)Oc3c(C)c(O)c4c(O)c(c(/C=N/N5CCN(C)CC5)c(O)c4c3C2=O)NC(=O)/C(C)=C\C=C\[C@H](C)[C@H](O)[C@@H](C)[C@@H](O)[C@@H](C)[C@H](OC(C)=O)[C@@H]1C,,,MIC,,visual reading,,H37Rv,0.078 µg/mL
O=C1Cc2cc(C(=O)CN3CCN(c4noc5cccc(Cl)c45)CC3)ccc2N1,,,MIC,,visual reading / absorbance,,H37Rv,25 µg/mL
COc1ccc(CCC(O)c2ccc(Oc3ccccc3)c(O)c2)cc1,,,MIC,,resazurin,,H37Rv,3.125 µg/mL
COc1cc(C[C@@H](C)[C@@H](C)Cc2ccc(O)c(OC)c2)ccc1O,,,MIC,,resazurin,multidrug-resistant,Clinical isolates,12.5–50 µg/mL
Cc1ccc(-c2nc(NCCCN3CCOCC3)[nH]c(=O)c2C#N)cc1,,,MIC,,,,H37Ra,>50 µg/mL
O=C(/C=C/c1ccccc1)n1c(-c2cccc([N+](=O)[O-])c2)nc2ccccc21,,,MIC100,,resazurin / visual reading,,H37Rv,50 µg/mL
N#Cc1c(-c2ccc(F)cc2)nc(Nc2ccc(F)cc2)[nH]c1=O,,,MIC,,,,H37Ra,>50 µg/mL
CN(C)C1C(=O)C(C(=O)NCN2CCOB(c3ccccc3)OCC2)=C(O)C2(O)C(O)=C3C(=O)C4C(O)=CC=CC4C(C)(O)C3CC12,12.5 µg/mL,,inhibition,,BACTEC,,H37Rv,94%
C#C[C@@]12O[C@]1(C=O)[C@@H]1[C@@H](O)C[C@H]3C(C)(C)CCC[C@]3(C)[C@H]1CC2=O,,,MIC,,,,Resistant strains,12.5 µg/mL
COC1C(=O)CCC2(CO2)C1(O)C1(C)OC1CC=C(C)C,,,MIC,,BACTEC,,H37Rv,≥12.8 µg/mL
COc1cc(-c2nc(N)nc(N)n2)ccc1OCc1ccc(F)cc1,,,MIC,,resazurin,,H37Rv,3.39 µM
Cc1ccc(-c2nc(Nc3ccc(F)cc3)[nH]c(=O)c2C#N)cc1,,,MIC,,,,H37Ra,>50 µg/mL
Cc1coc2c1C[C@]1(C)[C@@H](CC[C@H](O)[C@H]1C)C2,,,MIC bound,,resazurin,,H37Rv,>6.25 µg/mL
COc1cc2ccnc3c2c(c1OC(=O)c1ccc(C)cc1)N(C)C=C3,,,MIC,,,,H37Rv,>128 µg/mL
CC(C)(C)OC(=O)N[C@@H](CO)C(=O)N/N=C/c1ccccc1[N+](=O)[O-],,,MIC,,resazurin,,H37Rv,>100 µg/mL
COc1ccc(COc2cc(-c3nc(N)nc(N)n3)ccc2OC)cc1,,,MIC,,resazurin,,H37Rv,12 µM
O=C1Cc2cc(C(=O)CN3CCN(c4noc5cc(Cl)ccc45)CC3)ccc2N1,,,MIC,,visual reading / absorbance,,H37Rv,>50 µg/mL
O=C(/C=C/c1ccccc1)n1cnc2ccccc21,,,MIC100,,resazurin / visual reading,,H37Rv,50 µg/mL
CO[C@@]12[C@H](COC(=O)NCCO)C3=C(C(=O)C(C)=C(N)C3=O)N1C[C@H]1[C@@H]2N1C,,VERO,MIC,,BACTEC,,H37Rv,6.25 µg/mL
CC(=O)NCCCC[C@H](OC(C)=O)[C@@H](COC(C)=O)OC(C)=O,6.25 µg/mL,,inhibition,,agar,,H37Rv,100%
N#Cc1c(-c2cccnc2)nc(N2CCc3ccccc3C2)[nH]c1=O,,,MIC,,,,H37Ra,>50 µg/mL
CCN1C(=O)C(C)c2cc(C(=O)CN3CCN(c4ccccn4)CC3)ccc21,,,MIC,,visual reading / absorbance,,H37Rv,3.12 µg/mL
COc1ccc2ncc(COC(=O)NC3CCCCC3)c(COC(=O)NC3CCCCC3)c2c1,12.5 µg/mL,,inhibition,,BACTEC,,H37Rv,98%
CO[C@H]1/C=C/O[C@@]2(C)Oc3c(C)c(O)c4c(O)c(c(/C=N/N5CCN(C)CC5)c(O)c4c3C2=O)NC(=O)/C(C)=C\C=C\[C@H](C)[C@H](O)[C@@H](C)[C@@H](O)[C@@H](C)[C@H](OC(C)=O)[C@@H]1C,,,MIC,INH resistant,resazurin,,Clinical isolate,0.007 µg/mL
O=C(/C=C/c1ccccc1)n1c(-c2cccc(Cl)c2)nc2ccccc21,,,MIC100,,resazurin / visual reading,,H37Rv,12.5 µg/mL
Nc1nc(N)nc(-c2ccc(OCc3ccc(Cl)cc3Cl)cc2)n1,,,MIC,,resazurin,,H37Rv,66.07 µM
N=C1C=C(N)C(=O)c2ccccc21,,VERO,MIC,,BACTEC,,H37Rv,12.5 µg/mL
CC(=O)OC[C@@H](OC(C)=O)[C@H](/C=C/CC(C)[N+](=O)[O-])OC(C)=O,25 µg/mL,,inhibition,,agar,,H37Rv,100%
CSC(=S)N/N=C(/C)c1cccs1,,,MIC,,,,ETA-R,0.4 µg/mL
NC(=O)c1cnccn1,,,MIC100,,resazurin / visual reading,,H37Rv,3.12 µg/mL
CC12Nc3c(Cl)cc(Cl)cc3N1C(=O)c1ccccc12,,,MIC bound,,resazurin,,H37Rv,>6.25 µg/mL
CCCCCCCCNc1nc(-c2cccnc2)c(C#N)c(=O)[nH]1,,,MIC,,,,H37Ra,25–50 µg/mL
NNC(=O)C1CCN1C(c1ccccc1)c1ccccc1,,,MIC bound,,BACTEC,,H37Rv,>12.5 µg/mL
CC[C@@H](CO)NCCN[C@@H](CC)CO,,,MIC,,MTT,,H37Rv,8 µM
COc1cccc(C(=O)Oc2c(OC)cc3ccnc4c3c2N(C)C=C4)c1,,,MIC,,,,H37Rv,>128 µg/mL
NNC(=O)c1ccncc1,,,MIC,INH resistant,resazurin,,Clinical isolate,>12.5 µg/mL
CC(C)(C)OC(=O)N[C@@H](CO)C(=O)N/N=C/c1cccc(C#N)c1,,,MIC,,resazurin,,H37Rv,>100 µg/mL
O=C1Cc2cc(C(=O)CN3CCN(c4noc5ccccc45)CC3)ccc2N1,,,MIC,,visual reading / absorbance,,H37Rv,50 µg/mL
O=C(N[C@@H](CO)C(=O)N/N=C/c1cc(O)ccc1O)OCc1ccccc1,,,MIC,,resazurin,,H37Rv,>100 µg/mL
CC(=O)OC[C@@H](OC(C)=O)[C@@H](/C=C/C(O)C[N+](=O)[O-])OC(C)=O,25 µg/mL,,inhibition,,agar,,H37Rv,100%

For reference, 9 entries again:

SMILES	tested at	cell line	read-out	mutations	read by	conditions	strain	result
CC(=O)NCCCC[C@H](OC(C)=O)[C@@H](COC(C)=O)OC(C)=O	6.25 µg/mL		inhibition		agar		H37Rv	100%
NNC(=O)c1ccncc1			MIC	INH resistant	resazurin		Clinical isolate	>12.5 µg/mL
C[C@@H]1CC[C@@]2(OC1)O[C@H]1C[C@H]3[C@@H]4CC[C@H]5C[C@@H](O)CC[C@]5(C)[C@H]4C(=O)C[C@]3(C)[C@H]1[C@@H]2C	12.5 µg/mL		inhibition		BACTEC		H37Rv	1%
COc1cc2cc[n+](C)c(Cc3ccc(Oc4cc(Cc5c6cc(OC)c(OC)cc6cc[n+]5C)ccc4OC)cc3)c2cc1OC.[Cl-].[Cl-]	12.5 µg/mL		inhibition		BACTEC		H37Rv	37%
C#C[C@@]12O[C@]1(C=O)[C@@H]1[C@@H](O)C[C@H]3C(C)(C)CCC[C@]3(C)[C@H]1CC2=O			MIC				Resistant strains	12.5 µg/mL
CC(=O)OC[C@@H](OC(C)=O)[C@@H](/C=C/C(O)C[N+](=O)[O-])OC(C)=O	25 µg/mL		inhibition		agar		H37Rv	100%
O=C1Cc2cc(C(=O)CN3CCN(c4noc5cccc(Cl)c45)CC3)ccc2N1			MIC		visual reading / absorbance		H37Rv	25 µg/mL
CCCCc1ccc(C(=O)Oc2c(OC)cc3ccnc4c3c2N(C)C=C4)cc1			MIC				H37Rv	>128 µg/mL
C=C1OC(=O)C(N)=C1C(C)=O			MIC bound		BACTEC		H37Rv	>12.5 µg/mL

MIC50, MIC90 and the like: level of inhibition, or share of isolates inhibited. MIC bound comes from a single tested concentration. Blank or dashed fields: not listed here. Rows are shuffled and stem from different studies. For "inactive" no cut-off is given. Inhibition is in % at the dose shown (toxicity tests: loss of growth or viability).